1 substance from patent US11839610B2 (priority 2022, dated 2023) can be followed below.

The series has as its system ACE2-293T cells.

In the case of Cycleanine, the “cytotoxic to the ACE2-293T cells (in words)” value is given as “caused no damages”. Further, the “Cell Viability (%)” value (human) is listed as 98.59 ± 1.98%.
